Experimental data from patent US20240109955A1 (published 2024).

What was measured:
Assay in all cases: cell-based or functional assay
[1] = target: SARS-CoV-2 spike protein, original Wuhan strain (WA1) (SARS-CoV-2, UniProt P0DTC2 14-1273)
[2] = target: SARS-CoV-2 spike protein, D614G spike protein mutant (SARS-CoV-2, UniProt P0DTC2 14-1273)
[3] = target: SARS-CoV-2 original Wuhan strain (WA1) spike protein (SARS-CoV-2, UniProt P0DTC2 14-1273)
[4] = target: SARS-CoV-2 D614G spike protein mutant (SARS-CoV-2, UniProt P0DTC2 14-1273)
[5] = target: SARS-CoV-2 D614G spike protein mutant (SARS-CoV-2, UniProt P0DTC2 14-1273); remark: listed apart in the source
[6] = target: SARS-CoV-2 Omicron BA.4/5 spike protein (SARS-CoV-2)
[7] = target: SARS-CoV-2 Omicron BQ.1 spike protein (SARS-CoV-2)
[8] = target: SARS-CoV-2 Omicron BQ.1.1 spike protein (SARS-CoV-2)
[9] = target: SARS-CoV-2 Omicron BA.2.75.2 spike protein (SARS-CoV-2)
[10] = target: SARS-CoV-2 Omicron XBB spike protein (SARS-CoV-2)

B1: MX1069 (other)
chain 1: QTVVTQEPSFSVSPGGTVTLTCGLSSGSVSTAYFPSWYQQTPGQAPRTLIYGTNTRSSGVPDRFSGSILGNKAALTITGAQADDESDYYCVLYMGRGIVVFGGGTKLTVLGGSSGEIVLTQSPGTLSLSPGETATLSCRASQSFSSDLAWYQQKPGQAPRLLIYGASSRATGIPDRFSGSGSGTDFTLTISRLEPADFAVYYCQQYGSSPPVTFGGGTKVEIKGGGGSGGSGSGGGGSASGSGEVQLVESGGGLIQPGGSLRLSCAASGVIVSYNYMNWVRQAPGKGLEWVSVIYSGGSTFYADSVRGRFTISRDNSKNTLYLQMNSLRAEDTAVYYCARDLGPAGAFDIWGLGTMVTVSSGGSSGQVQLVESGGGVVQPGRSLRLSCAASGFTLSSYGMHWVRQAPGKGLEWVAVISYDGSNKYYVDSVKGRFTISRDNSKNTLYLQMNSLRAEDTAVYYCRWAYWELLPDYYYGMDVWGQGTTVTVSSASGGSGDKTHTCPPCPAPELLGGPSVFLFPPKPKDTLMISRTPEVTCVVVDVSHEDPEVKFNWYVDGVEVHNAKTKPREEQYNSYVVSVLTVLHQDWLNGKEYKCKVSNKALPAPIEKTISKAKGQPREPQVYTLPPCRDELTKNQVSLWCLVKGFYPSDIAVEWESNGQPENNYKTTPPVLDSDGSFFKKLTVDKSRWQQGNVFSCSVLHEALHSHYTQKSLSLSPG
chain 2: EIVLTQSPGTLSLSPGETATLSCRASQSFSSDLAWYQQKPGQAPRLLIYGASSRATGIPDRFSGSGSGTDFTLTISRLEPADFAVYYCQQYGSSPPVTFGGGTKVEIKGGSSGDTVMTQSPLSLPVTPGEPASISCRSSQSLLNSNGYNYLDWYVQKPGQSPQLLIYLGSNRASGVPDRFSGSGSGTDFTLKISRVEAEDVGVYYCMQPLQTPLFTFGPGTKVEIKGGGGSGGSGSGGGGSASGSGQVTLRESGPALVKPTQTLTLTCTFSGFSLSTRGVCVSWIRQPPGKALEWLAFIDWDDDKYYNTSLKTRLTISKDTSKNQVVLTMTNVHPVDTATYYCARISSHHGSSWCTTFDYWGQGALVTVSAGGSSGEVQLVESGGGLIQPGGSLRLSCAASGVIVSYNYMNWVRQAPGKGLEWVSVIYSGGSTFYADSVRGRFTISRDNSKNTLYLQMNSLRAEDTAVYYCARDLGPAGAFDIWGLGTMVTVSSASGGSGDKTHTCPPCPAPELLGGPSVFLFPPKPKDTLMISRTPEVTCVVVDVSHEDPEVKFNWYVDGVEVHNAKTKPREEQYNSYVVSVLTVLHQDWLNGKEYKCKVSNKALPAPIEKTISKAKGQPREPQVCTLPPSRDELTKNQVSLSCAVKGFYPSDIAVEWESNGQPENNYKTTPPVLDSDGSFFLVSKLTVDKSRWQQGNVFSCSVLHEALHSHYTQKSLSLSPG
With B1 the “IC50, pseudovirus neutralization” value [1] was 0.0332 µg/mL, the “IC80, pseudovirus neutralization” value [1] was 0.0382 µg/mL and the “IC50, pseudovirus neutralization” value [2] was 0.00547 µg/mL. For the same binder, the “IC80, pseudovirus neutralization” value [2] was 0.0239 µg/mL.

B2: MX1023 (bispecific antibody)
chain: EIVMTQSPAILSVSPGERATLSCRASQSVAINLAWYQQKPGQAPRLLIYAASSRATGIPGRFSGSGSETNFTLTISSLQSGDFAVYYCQQYITWPPSYTFGQGTKLEIKGGSSGQTVVTQEPSFSVSPGGTVTLTCGLSSGSVSTAYFPSWYQQTPGQAPRTLIYGTNTRSSGVPDRFSGSILGNKAALTITGAQADDESDYYCVLYMGRGIVVFGGGTKLTVLGGGGSGGSGSGGGGSASGSGQVQLVESGGGVVQPGRSLRLSCAASGFTLSSYGMHWVRQAPGKGLEWVAVISYDGSNKYYVDSVKGRFTISRDNSKNTLYLQMNSLRAEDTAVYYCRWAYWELLPDYYYGMDVWGQGTTVTVSSGGSSGEVQLVESGGALIQPGGSLRLSCAASGIIVSANYMSWVRQAPGKGLEWVSVIYSGGSTFYADSVKGRFTISRDNSKNTLYLEMNSLRAEDTAVYYCARDAPILGVSDWGQGTLVTVSSASGGSGDKTHTCPPCPAPELLGGPSVFLFPPKPKDTLMISRTPEVTCVVVDVSHEDPEVKFNWYVDGVEVHNAKTKPREEQYNSYVVSVLTVLHQDWLNGKEYKCKVSNKALPAPIEKTISKAKGQPREPQVYTLPPSRDELTKNQVSLTCLVKGFYPSDIAVEWESNGQPENNYKTTPPVLDSDGSFFKKLTVDKSRWQQGNVFSCSVLHEALHSHYTQKSLSLSPG
With B2 the “IC50, pseudovirus neutralization” value [3] was 0.0153 µg/mL, the “IC80, pseudovirus neutralization” value [3] was 0.0824 µg/mL and the “IC80, pseudovirus neutralization” value [4] was 0.0406 µg/mL.

B3: MX1024 (bispecific antibody)
chain: EIVMTQSPAILSVSPGERATLSCRASQSVAINLAWYQQKPGQAPRLLIYAASSRATGIPGRFSGSGSETNFTLTISSLQSGDFAVYYCQQYITWPPSYTFGQGTKLEIKGGSSGDTVMTQSPLSLPVTPGEPASISCRSSQSLLNSNGYNYLDWYVQKPGQSPQLLIYLGSNRASGVPDRFSGSGSGTDFTLKISRVEAEDVGVYYCMQPLQTPLFTFGPGTKVEIKGGGGSGGSGSGGGGSASGSGQVTLRESGPALVKPTQTLTLTCTFSGFSLSTRGVCVSWIRQPPGKALEWLAFIDWDDDKYYNTSLKTRLTISKDTSKNQVVLTMTNVHPVDTATYYCARISSHHGSSWCTTFDYWGQGALVTVSAGGSSGEVQLVESGGALIQPGGSLRLSCAASGIIVSANYMSWVRQAPGKGLEWVSVIYSGGSTFYADSVKGRFTISRDNSKNTLYLEMNSLRAEDTAVYYCARDAPILGVSDWGQGTLVTVSSASGGSGDKTHTCPPCPAPELLGGPSVFLFPPKPKDTLMISRTPEVTCVVVDVSHEDPEVKFNWYVDGVEVHNAKTKPREEQYNSYVVSVLTVLHQDWLNGKEYKCKVSNKALPAPIEKTISKAKGQPREPQVYTLPPSRDELTKNQVSLTCLVKGFYPSDIAVEWESNGQPENNYKTTPPVLDSDGSFFKKLTVDKSRWQQGNVFSCSVLHEALHSHYTQKSLSLSPG
With B3 the “IC50, pseudovirus neutralization” value [3] was 0.00176 µg/mL, the “IC80, pseudovirus neutralization” value [3] was 0.0157 µg/mL and the “IC80, pseudovirus neutralization” value [4] was 0.00816 µg/mL.

B4: MX1041 (bispecific antibody)
chain: B1 chain 1 with C628S, W640T
With B4 the “IC80, pseudovirus neutralization” value [5] was 0.0457 µg/mL.

B5: MX1042 (bispecific antibody)
chain: DTVMTQSPLSLPVTPGEPASISCRSSQSLLNSNGYNYLDWYVQKPGQSPQLLIYLGSNRASGVPDRFSGSGSGTDFTLKISRVEAEDVGVYYCMQPLQTPLFTFGPGTKVEIKGGSSGEIVLTQSPGTLSLSPGETATLSCRASQSFSSDLAWYQQKPGQAPRLLIYGASSRATGIPDRFSGSGSGTDFTLTISRLEPADFAVYYCQQYGSSPPVTFGGGTKVEIKGGGGSGGSGSGGGGSASGSGEVQLVESGGGLIQPGGSLRLSCAASGVIVSYNYMNWVRQAPGKGLEWVSVIYSGGSTFYADSVRGRFTISRDNSKNTLYLQMNSLRAEDTAVYYCARDLGPAGAFDIWGLGTMVTVSSGGSSGQVTLRESGPALVKPTQTLTLTCTFSGFSLSTRGVCVSWIRQPPGKALEWLAFIDWDDDKYYNTSLKTRLTISKDTSKNQVVLTMTNVHPVDTATYYCARISSHHGSSWCTTFDYWGQGALVTVSAASGGSGDKTHTCPPCPAPELLGGPSVFLFPPKPKDTLMISRTPEVTCVVVDVSHEDPEVKFNWYVDGVEVHNAKTKPREEQYNSYVVSVLTVLHQDWLNGKEYKCKVSNKALPAPIEKTISKAKGQPREPQVYTLPPSRDELTKNQVSLTCLVKGFYPSDIAVEWESNGQPENNYKTTPPVLDSDGSFFKKLTVDKSRWQQGNVFSCSVLHEALHSHYTQKSLSLSPG
In the case of B5, the “IC80, pseudovirus neutralization” value [5] is reported as 0.0122 µg/mL.

B6: E8 (antibody, V domains shown)
VH: QVTLRESGPALVKPTQTLTLTCTFSGFSLSTRGVCVSWIRQPPGKALEWLAFIDWDDDKYYNTSLKTRLTISKDTSKNQVVLTMTNVHPVDTATYYCARISSHHGSSWCTTFDYWGQGALVTVSA
VL: DTVMTQSPLSLPVTPGEPASISCRSSQSLLNSNGYNYLDWYVQKPGQSPQLLIYLGSNRASGVPDRFSGSGSGTDFTLKISRVEAEDVGVYYCMQPLQTPLFTFGPGTKVEIK
For B6, the “IC50, pseudovirus neutralization” value [6] was 0.00013 µg/mL, the “IC80, pseudovirus neutralization” value [6] was 0.00049 µg/mL and the “IC50, pseudovirus neutralization” value [7] was 0.124 µg/mL. The “IC80, pseudovirus neutralization” value [7] was 5.19 µg/mL, the “IC50, pseudovirus neutralization” value [8] was 0.496 µg/mL and the “IC80, pseudovirus neutralization” value [8] was 1.8 µg/mL. The “IC50, pseudovirus neutralization” value [9] was 0.00172 µg/mL, the “IC80, pseudovirus neutralization” value [9] was 0.0059 µg/mL and the “IC50, pseudovirus neutralization” value [10] was 0.0615 µg/mL. The “IC80, pseudovirus neutralization” value [10] was 0.705 µg/mL.

Positions count from the first letter of the chain named. Like-named read-outs stand apart in the source and are kept apart here.
